Source: patent publication US20080254010A1, “Controlling Clostridium difficile-Associated Disease in the Gastrointestinal Tract” (priority 2007, published 2008)

Tested on: Clostridium difficile(ATCC 9689) spores
Conditions: 17 hours after treatment; 15 μg/mL L-alanine (D-alanine at equal concentration where combined); water-agar

With C[C@H](N)C(=O)O [L-alanine] the spores germinated was “approximately 79%”.
